Pooled drug test results. Numbers come from NIAID ChemDB, via PubChem.

Shared fields: host cell toxicity; measure: CC50

Rows are shuffled and stem from different studies. CCn is the concentration with n% toxicity to the cells. Blank or dashed fields: not listed here.

COC(=O)NC(Cc1cccc(Cl)c1Cl)C(=O)N[C@@H](C)CCC[C@@H](CO)N(C(C)C)S(=O)(=O)c1ccc(CO)cc1 ; method: microscopy ; cells: T lymphoid cells ; value: >10 µM
O=C(NCc1ccc(F)cc1)c1c(O)c2cccnc2n(O)c1=O ; cells: HeLa ; value: <100 µM
Cn1ccc(-c2ncc(F)c3c(C(=O)C(=O)N4CCN(C(=O)c5ccccc5)CC4)c[nH]c23)n1 ; method: trypan blue ; cells: HeLa ; value: ≤100 µM
NC(=S)Nc1cccc(OCCCCCOc2ccccc2C(=O)Oc2ccccc2)c1 ; method: MTS ; cells: Ava5-EG(delta4AB)SEAP ; value: >1 µM
COC(=O)N[C@H](C(=O)N[C@H](CCC[C@@H](CO)N(C(C)C)S(=O)(=O)c1ccc(N)cc1)C1CC1)C(c1ccccc1)c1ccccc1 ; method: microscopy ; cells: T lymphoid cells ; value: >10 µM
O=C(NCCCc1ccc2c(n1)NCCC2)Nc1ccc(C(F)(F)F)cc1 ; cells: PBMC ; value: 25 µM
COc1cnc(-c2noc(C)n2)c2[nH]cc(C(=O)C(=O)N3CCN(C(=O)c4ccccc4)CC3)c12 ; method: trypan blue ; cells: HeLa ; value: >100 µM
CCOC(=O)C1=C(CN2CC(F)(F)[C@H]3[C@@H]2CCN3C[C@@H](F)C(C)(C)C(=O)O)NC(c2nc(C)cs2)=N[C@H]1c1ccc(F)c(F)c1F ; method: WST / absorbance ; cells: HepG2.2.15 ; value: 19.7 µM
Cc1ccc(/C=c2\c(=O)sc3nc4c(c(=S)n23)C2=C(CCC/C2=C\c2ccncc2)C(c2ccncc2)S4)cc1 ; method: MTT ; cells: CNE-2 ; value: 37.1 µM
CC[C@@H](CCC[C@@H](CO)N(CCC(C)C)S(=O)(=O)c1ccc(CO)cc1)NC(=O)[C@@H](N)C(c1ccccc1)c1ccccc1 ; method: microscopy ; cells: T lymphoid cells ; value: >10 µM
Cc1ccc2ccccc2c1OCCCCCOc1cccc(NC(N)=S)c1 ; method: MTS ; cells: Ava5-EG(delta4AB)SEAP ; value: >1 µM
COC(=O)C1=C(CN2CC(F)(F)[C@@H]3[C@H]2CON3C[C@@H](OC)C(C)(C)C(=O)O)NC(c2nccs2)=N[C@H]1c1ccc(F)c(F)c1C ; method: WST / absorbance ; cells: HepG2.2.15 ; value: 50 µM
O=c1cc(Nc2ccccc2N2CCOCC2)c2cccnc2n1O ; cells: HeLa ; value: 0.2 µM
CCCN([C@H](CO)CCC[C@H](CC)NC(=O)[C@@H](NC(=O)OC)C(c1ccccc1)c1ccccc1)S(=O)(=O)c1ccc(CO)cc1 ; method: microscopy ; cells: T lymphoid cells ; value: >10 µM
O=c1cc(N[C@@H]2CCN(Cc3ccccc3)C2)c2cccnc2n1O ; cells: HeLa ; value: <100 µM
O=C(NCCc1cccc(-n2cnc3ccccc32)n1)Nc1cccc(F)c1 ; cells: PBMC ; value: 50 µM
CC(C)C[C@@H]1NC(=O)[C@H](Cc2c[nH]c3ccccc23)NC(=O)[C@@H](CCCCN)NC(=O)[C@H](CC(N)=O)NC(=O)[C@H](C(C)C)NC(=O)[C@@H](CC(C)C)NC1=O ; method: MTT ; cells: Lung carcinoma cells ; value: >30 µM
COc1cnc(-n2cncn2)c2[nH]cc(C(=O)C(=O)N3CCN(C(=O)c4ccccc4)CC3)c12 ; method: trypan blue ; cells: HeLa ; value: >100 µM
CN(C)CCNC(=S)Nc1ccc2c(c1)Cc1cc(Br)ccc1-2 ; method: MTS ; cells: Ava5-EG(delta4AB)SEAP ; value: >1 µM
Nc1ccn(-c2ncc(F)c3c(C(=O)C(=O)N4CCN(C(=O)c5ccccc5)CC4)c[nH]c23)n1 ; method: trypan blue ; cells: HeLa ; value: >100 µM
COc1cccc(OCCCCCOc2cccc(NC(N)=S)c2)c1 ; method: MTS ; cells: Ava5-EG(delta4AB)SEAP ; value: >1 µM
CC(C)N(Cc1cccc(OCCCCCC(=O)OC(=O)O)c1)C(=O)c1ccc(-c2cccc(C#N)c2)cc1 ; cells: RAJI ; value: >20 µM
O=C(CN1CCN(c2cccc(-c3cc(=O)n(O)c4ncccc34)c2)CC1)N1CCOCC1 ; cells: HeLa ; value: <100 µM
NNC(=O)c1ccncc1 ; method: MTT ; cells: Lung carcinoma cells ; value: >30 µM
CNC(=S)Nc1ccc2c(c1)Cc1cc(Br)ccc1-2 ; method: MTS ; cells: Ava5-EG(delta4AB)SEAP ; value: >1 µM
Nc1ncn(-c2ncc(F)c3c(C(=O)C(=O)N4CCN(C(=O)c5ccccc5)CC4)c[nH]c23)n1 ; method: trypan blue ; cells: HeLa ; value: >100 µM
COC(=O)C1=C(CN2CC(F)(F)[C@@H]3[C@H]2CON3C[C@H](OC)C(C)(C)C(=O)O)NC(c2nc(C)cs2)=N[C@H]1c1ccc(F)c(F)c1C ; method: WST / absorbance ; cells: HepG2.2.15 ; value: >50 µM
N=c1c2c(ncn1Nc1ccccc1)SC(c1ccncc1)C1=C2/C(=C/c2ccncc2)CCC1 ; method: MTT ; cells: CNE-2 ; value: 12.9 µM
COC(=O)N[C@@H](Cc1ccccc1Cl)C(=O)N[C@@H](C)CCC[C@@H](CO)N(CC(C)C)S(=O)(=O)c1ccc(CO)cc1 ; method: microscopy ; cells: T lymphoid cells ; value: >10 µM
COC(=O)C1=C(CN2CC(F)(F)[C@@H]3[C@H]2CON3C[C@H](O)C(C)(C)C(=O)O)NC(c2nccs2)=N[C@H]1c1ccc(F)c(F)c1Cl ; method: WST / absorbance ; cells: HepG2.2.15 ; value: >100 µM
CCOC(=O)CCCCCOc1cccc(C=O)c1 ; cells: BJ ; value: >20 µM
CC(CN1CCc2ccccc2C1)NC(=O)Nc1ccc(C(F)(F)F)cc1 ; cells: PBMC ; value: 50 µM
NC(=S)Nc1cccc(NCCCc2ccccc2)c1 ; method: MTS ; cells: Ava5-EG(delta4AB)SEAP ; value: >1 µM
COc1cc2c(cc1OC)C1(CC=CCC1)N(C(C)=O)CC2 ; cells: RAJI ; value: <7.5 µM
COc1cnc(-c2cncnc2)c2[nH]cc(C(=O)C(=O)N3CCN(C(=O)c4ccccc4)CC3)c12 ; method: trypan blue ; cells: HeLa ; value: ≤100 µM
O=C(NCCc1ccc2c(n1)NCCC2)NCc1ccccc1F ; cells: PBMC ; value: 50 µM
COC(=O)N[C@H](C(=O)N[C@H](CCC[C@@H](CO)N(CC(C)C)S(=O)(=O)c1ccc(N)cc1)C(C)C)C(c1ccccc1)c1ccccc1 ; method: microscopy ; cells: T lymphoid cells ; value: 10 µM
CCO/C=N\C1=C(C#N)C2=C(CCC/C2=C\c2ccncc2)C(c2ccncc2)S1 ; method: MTT ; cells: MGC-803 ; value: >50 µM
CC(C)N(Cc1cccc(OCCCCCC(=O)OC(=O)O)c1)C(=O)c1ccc(-c2ccc3ccccc3c2)cc1 ; cells: BJ ; value: >20 µM
CC(C)C[C@@H]1NC(=O)[C@H](Cc2c[nH]c3ccccc23)NC(=O)[C@@H](CC(C)C)NC(=O)[C@H](CCCCN)NC(=O)[C@H](C(C)C)NC(=O)[C@@H](CC(C)C)NC1=O ; method: MTT ; cells: Lung carcinoma cells ; value: >30 µM
O=C(NCCc1ccc2c(n1)NCCC2)Oc1ccccc1 ; cells: PBMC ; value: 50 µM
Clc1nnnc2c1C1=C(CCC/C1=C\c1ccncc1)C(c1ccncc1)S2 ; method: MTT ; cells: CNE-2 ; value: 13.3 µM
CCC(C)[C@@H]1NC(=O)[C@@H](C(C)CC)NC(=O)[C@H](CC(C)C)NC(=O)[C@H](Cc2c[nH]c3ccccc23)NC(=O)CNC(=O)[C@H](CC(N)=O)NC1=O ; method: MTT ; cells: Lung carcinoma cells ; value: >30 µM

A second listing of 5 rows from above:

compound	method	cells	value
O=C(NCc1ccc(F)cc1)c1c(O)c2cccnc2n(O)c1=O		HeLa	<100 µM
CCC(C)[C@@H]1NC(=O)[C@@H](C(C)CC)NC(=O)[C@H](CC(C)C)NC(=O)[C@H](Cc2c[nH]c3ccccc23)NC(=O)CNC(=O)[C@H](CC(N)=O)NC1=O	MTT	Lung carcinoma cells	>30 µM
CC(C)N(Cc1cccc(OCCCCCC(=O)OC(=O)O)c1)C(=O)c1ccc(-c2cccc(C#N)c2)cc1		RAJI	>20 µM
Cc1ccc(/C=c2\c(=O)sc3nc4c(c(=S)n23)C2=C(CCC/C2=C\c2ccncc2)C(c2ccncc2)S4)cc1	MTT	CNE-2	37.1 µM
O=C(NCCc1ccc2c(n1)NCCC2)Oc1ccccc1		PBMC	50 µM